Experimental data: paper PMC9119628, “Ubiquitination of Ebola virus VP35 at lysine 309 regulates viral transcription and assembly” (2022)

Biological target: HA-NP (HA-tagged EBOV nucleoprotein), Zaire ebolavirus (EBOV), P18272 1-739

Substance | result | fold binding relative to wt VP35 without OTU [fold]
FLAG-tagged EBOV VP35 K309G | binds | 
untagged EBOV VP35 K309R |  | 5
